Results of unrelated studies side by side (data: NIAID ChemDB).

Common to all: growth or infection tests; agent: Coxsackie virus; cell line: VERO; read by: cytopathic effect; read-out: EC50

Neighbouring rows are from separate reports. ECn: concentration that inhibits the pathogen or its effect by n%.

| SMILES | strain | value |
|---|---|---|
| Cc1cn([C@@H]2CC[C@H](CO)C2)c(=O)[nH]c1=O | TYPE B4 | >400 µg/mL |
| Nc1nc(N)c2ncn(C[C@H]3CC[C@@H](CO)C3)c2n1 | TYPE B4 | >200 µg/mL |
| Nc1ncnc2c1ncn2[C@H]1[C@H](O)[C@H](O)[C@]2(CO)O[C@H]12 | TYPE B4 | 2 µg/mL |
| Nc1nccc2c1ncn2[C@@H]1C[C@H](CO)[C@@H](O)[C@H]1O | TYPE B4 | 7 µg/mL |
| Nc1nccc2c1ncn2[C@@H]1O[C@H](CO)[C@@H](O)[C@H]1O | TYPE B4 | 10 µg/mL |
| O=c1[nH]cnc2c1ncn2[C@@H]1C=C(CO)[C@@H](O)[C@H]1O | TYPE B4 | 7 µg/mL |
| NC(=O)c1cn([C@@H]2O[C@H](CO)[C@@H](O)[C@H]2O)c2ncnc(N)c12 | TYPE B4 | 0.02 µg/mL |
| Cc1cn([C@@H]2C[C@H](CO)[C@H](O)C2)c(=O)[nH]c1=O | TYPE B4 | >200 µg/mL |
| O=c1[nH]c(=O)n([C@H]2C[C@H](O)[C@@H](CO)O2)cc1/C=C/Br | TYPE B4 | >400 µg/mL |
| Nc1ncnc2c1ncn2[C@@H]1C=C(CO)[C@@H](O)[C@H]1O | TYPE B4 | >10 µg/mL |
| Nc1ncnc2c1ncn2[C@@H]1C=C(CO)[C@@H](O)[C@H]1O | TYPE B4 | 0.04 µg/mL |
| Cc1cn([C@H]2C[C@@H](CO)[C@H](O)C2)c(=O)[nH]c1=O | TYPE B4 | >400 µg/mL |
| Nc1ncnc2c1ncn2C[C@H](O)CO | TYPE B4 | >400 µg/mL |
| Nc1ncnc2c1ccn2[C@@H]1O[C@H](CO)[C@H](O)[C@H]1O | TYPE B4 | ≥40 µg/mL |
| Nc1nc2c(ncn2C[C@H]2CC[C@@H](CO)C2)c(=O)[nH]1 | TYPE B4 | >200 µg/mL |
| Nc1ncnc2c1ncn2C[C@H](O)CO | TYPE B4 | 40 µg/mL |
| Nc1ncnc2c1ccn2[C@H]1C[C@H](O)[C@@H](CO)O1 | TYPE B4 | 40 µg/mL |
| Nc1nccc2c1ncn2[C@@H]1C[C@H](CO)[C@@H](O)[C@H]1O | TYPE B4 | 300 µg/mL |
| NC(=O)c1cn([C@@H]2O[C@H](CO)[C@@H](O)[C@@H]2O)c2ncnc(N)c12 | TYPE B4 | 2 µg/mL |
| NC(=O)c1c[se]c([C@@H]2O[C@H](CO)[C@@H](O)[C@H]2O)n1 | TYPE B1/HA201468 | 15 µg/mL |
| NC(=O)c1cn([C@H]2C[C@H](O)[C@@H](CO)O2)c2ncnc(N)c12 | TYPE B4 | 2 µg/mL |
| Nc1ncnc2c1c(Br)cn2[C@@H]1O[C@H](CO)[C@@H](O)[C@H]1O | TYPE B4 | 0.07 µg/mL |
| N#Cc1cn([C@H]2C[C@H](O)[C@@H](CO)O2)c2ncnc(N)c12 | TYPE B4 | >1 µg/mL |
| Nc1ncnc2c1ncn2C[C@H](O)CO | TYPE B4 | 70 µg/mL |